Measured values from several laboratories, pooled; numbers as filed in NIAID ChemDB.

Shared fields: whole-cell or culture tests; organism: Hepatitis B virus

ECn: concentration that inhibits the pathogen or its effect by n%. Rows are shuffled and stem from different studies. Blank or dashed fields: not listed here. a–b is a range or a potency band.

smiles	read by	endpoint	conditions	strain or isolate	cell line	result
COc1cc(C2Oc3cc(O)cc(O)c3C(=O)C2OC2O[C@H](CO)[C@@H](O)[C@H](O)[C@H]2O)ccc1O	ELISA / antigen	EC50			HepG2.2.15	447 µM
Nc1nc(N)c(Br)c(OCCOCP(=O)(O)O)n1		EC50			HepAD38	3 µg/mL
Cc1cn([C@@H]2CC[C@H](CO)O2)c(=O)[nH]c1=O		EC50			2.2.15	>10 µM
O=c1[nH]c(=O)n([C@H]2O[C@@H](CO)C[C@H]2F)cc1Br		EC50			2.2.15	>50 µM
O=C(CCc1ccccc1)[Se]c1ccccc1	PCR	EC50			HepG2.2.15	2.8 µM
C[C@@H](COc1cc(N)nc(N)n1)OCP(=O)(O)O	PCR	EC50			HEPAD79	>300 µM
O=c1[nH]c(=O)n([C@H]2O[C@@H](CO)C[C@H]2F)cc1Cl		EC50			2.2.15	>50 µM
CC1=C(O)C(=O)C=C2C1=CC=C1[C@@]2(C)CC[C@@]2(C)[C@@H]3C[C@](C)(C(=O)N(C)C)CC[C@]3(C)CC[C@]12C	ELISA / antigen	EC50			HepG2 2.2.15	11.9 µM
COc1cc(O)c2c(=O)c(O)c(-c3ccc(O)cc3)oc2c1	ELISA / antigen	EC50			HepG2.2.15	<32.67 µM
Nc1nc(N)c2ncn(C[C@@H](CO)OCP(=O)(O)O)c2n1	hybridisation	EC50			HepG2 2.2.15	0.22 µM
Nc1nc(=O)n([C@@H]2CC[C@H](CO)O2)cc1Cl		EC50			2.2.15	10 µM
Nc1cc(SCCOCP(=O)(O)O)nc(N)n1	PCR	EC50			HEPAD79	1 µM
Cc1ccc(/C=C/C=C/C(=O)[Se]c2ccccc2)cc1	PCR	EC50			HepG2.2.15	3.7 µM
COc1ccc(Cn2c(=O)c3c(n4ncc(Br)c24)CN(C(=O)OC(C)(C)C)CC3)cc1	PCR	EC50			HepG2.117	0.1–0.5 µM
Nc1nc(OCCOCP(=O)(O)O)cc(=O)[nH]1	PCR	EC50			HepAD38	1.3 µM
CCCOC(=O)[C@]1(C)CC[C@]2(C)CC[C@]3(C)C4=CC=C5C(=CC(=O)C(O)=C5C)[C@]4(C)CC[C@@]3(C)[C@@H]2C1	ELISA / antigen	EC50			HepG2 2.2.15	23.1 µM
C[C@@H](COc1cc(N)nc(N)n1)OCP(=O)(O)O		EC50			HEPAD79	~100 µg/mL
COC(=O)[C@]1(O)C[C@H](OC(=O)/C=C/c2ccc(O)c(O)c2)[C@@H](O)[C@@H](O)C1	PCR	EC50			HepG2.2.15	144.7 µM
Nc1ccn([C@H]2O[C@@H](CO)C=C2F)c(=O)n1		EC90		RTM204	HEPAD79	>10 µM
Nc1ncnc2c1ncn2CCOCP(=O)(O)O		EC50		WILD TYPE	Huh7	0.58 µM
Nc1nc(=O)n([C@@H]2C[C@@H](F)[C@H](CO)O2)cc1F		EC50			2.2.15	4 µM
O=C(/C=C/C=C/c1ccc([N+](=O)[O-])cc1)[Se]c1ccccc1	PCR	EC50			HepG2.2.15	4.2 µM
Nc1ccn([C@H]2CC[C@@H](CO)O2)c(=O)n1		EC50			HB611	0.76 µg/mL
CC1=C(O)C(=O)C=C2C1=CC=C1[C@@]2(C)CC[C@@]2(C)[C@@H]3C[C@](C)(C(=O)OCc4ccccc4)CC[C@]3(C)CC[C@]12C	ELISA / antigen	EC50			HepG2 2.2.15	11.5 µM
CNc1ncnc2c1ncn2[C@@H]1O[C@@H](CO)C[C@H]1F		EC50			2.2.15	>10 µM
Nc1nc2c(ncn2[C@H]2CC[C@@H](CO)O2)c(=O)[nH]1		EC50			HepG2 2.2.15	10 µM
Nc1ncnc2c1cnn2CCOCP(=O)(O)O		EC50			HB611	17 µM
Nc1ncnc2c1ncn2CCOCP(=O)(O)O	hybridisation	EC90			HepG2 2.2.15	19 µM
Nc1cc(OCCOCP(=O)(O)O)nc(N)n1	PCR	EC50			HEPAD79	0.25 µM
O=c1[nH]c(=O)n([C@@H]2O[C@@H](CO)C[C@H]2F)cc1Br		EC50			2.2.15	>100 µM
C[C@@H](Cn1cnc2c(N)nc(N)nc21)OCP(=O)(O)O	PCR	EC50			HEPAD79	14.5 µM
COC(=O)C1(O)C[C@H](O)C(OC(=O)/C=C/c2ccc(O)c(O)c2)[C@@H](O)C1	ELISA / antigen	EC50			HepG2.2.15	>2450 µM
O=C1C[C@@H](c2ccc(O)cc2)Oc2cc(OC3O[C@H](CO)[C@@H](O)[C@H](O)[C@H]3O)cc(O)c21	PCR	EC50			HepG2.2.15	41.59 µM
Nc1nc2c(ncn2C[C@@H](CO)OCP(=O)(O)O)c(=O)[nH]1		EC50			HB611	32 µM
O=C(/C=C/c1ccc(O)c(O)c1)O[C@@H]1[C@@H](OC(=O)/C=C/c2ccc(O)c(O)c2)C[C@@](O)(C(=O)O)C[C@@H]1O	ELISA / antigen	EC50			HepG2.2.15	202.7 µM
O=C(/C=C/c1ccc(O)c(O)c1)[Se]c1ccccc1	PCR	EC50			HepG2.2.15	2.4 µM
Nc1ccn([C@@H]2C=C[C@H](CO)O2)c(=O)n1		EC50			2.2.15	<0.1 µM
COc1cc(NC(=O)Nc2cccc(CNC(=O)O[C@H]3CCOC3)c2)ccc1-c1cnco1	PCR	EC50			HepG2 2.2.15	0.4 µM
O=c1ccc2ccc(O)cc2o1	PCR	EC50			HepG2.2.15	448 µM
Nc1ncnc2c1ncn2[C@H]1CC[C@@H](CO)O1		EC90			HepG2.2.15	96 µM
O=C(/C=C/C=C/c1ccccc1)[Se]c1ccccc1	PCR	EC50			HepG2.2.15	16.3 µM
Nc1ncnc2c1ncn2[C@H]1CC[C@@H](CO)O1		EC50			HB611	14.2 µg/mL
O=C(/C=C/c1ccc(O)cc1)[Se]c1ccccc1	PCR	EC50			HepG2.2.15	7.4 µM
CCCNC(=O)[C@]1(C)CC[C@]2(C)CC[C@]3(C)C4=CC=C5C(=CC(=O)C(O)=C5C)[C@]4(C)CC[C@@]3(C)[C@@H]2C1	ELISA / antigen	EC50			HepG2 2.2.15	29.7 µM
Nc1nc2ncn(CCOCP(=O)(O)O)c2c(=O)[nH]1		EC50			HB611	15 µM
O=C(/C=C/c1ccc(O)c(O)c1)O[C@H]1CC(O)(C(=O)O)C[C@H](OC(=O)/C=C/c2ccc(O)c(O)c2)C1O	PCR	EC50			HepG2.2.15	6.4 µM
Nc1nc(N)c2ncn(CCOCP(=O)(O)O)c2n1		EC50			HB611	0.07 µM
O=c1[nH]c(=O)n([C@@H]2O[C@@H](CO)C[C@H]2F)cc1F		EC50			2.2.15	>10 µM
C[C@H]1[C@H](C)C[C@@H](C(=O)O[C@@H]2O[C@H](CO[C@@H]3O[C@H](CO)[C@@H](O[C@@H]4O[C@H](C)[C@H](O)[C@@H](O)[C@H]4O)[C@H](O)[C@H]3O)[C@@H](O)[C@H](O)[C@H]2O)C2CC[C@]3(C)C(=CC[C@@H]4[C@@]5(C)C[C@@H](O)[C@H](O)[C@@](C)(CO)[C@@H]5CC[C@]43C)[C@H]21	antigen	EC50	14 d		HepG2.2.15	67.8 µM
Nc1ncnc2c1ncn2CCOCP(=O)(O)O		EC90		RTM204	HepAD38	>10 µM
Nc1nc(N)c(C=O)c(OCCOCP(=O)(O)O)n1		EC50			HepAD38	6 µg/mL
Nc1ccn([C@@H]2C[C@@H](F)[C@H](CO)O2)c(=O)n1		EC50			2.2.15	0.5 µM
O=c1[nH]c(=O)n([C@H]2O[C@@H](CO)C[C@H]2F)cc1F		EC50			2.2.15	>50 µM
Nc1ncnc2c1ncn2[C@H]1CC[C@@H](CO)O1		EC50			HB611	100 µM
CNc1ncnc2c1ncn2[C@H]1O[C@@H](CO)C[C@H]1F		EC50			2.2.15	>10 µM
O=c1[nH]cnc2c1ncn2CCOCCP(=O)(O)O		EC50			HB611	>400 µM
Nc1nc(N)c2ncn([C@H]3CC[C@@H](CO)O3)c2n1		EC50			HepG2 2.2.15	10 µM
CCn1cc(C(=O)O)c(=O)c2ccc(C)nc21		EC90			HepG2.2.15	57 µM
O=c1ccn([C@@H]2O[C@@H](CO)C[C@H]2F)c(=O)[nH]1		EC50			2.2.15	>10 µM
Cc1cn([C@H]2C=C[C@@H](CO)O2)c(=O)[nH]c1=O		EC50			HB611	44.7 µg/mL
CC(C)(C)C(=O)SCCOP(=O)(OCCSC(=O)C(C)(C)C)OC[C@H]1CC[C@@H](n2cnc3c(N)ncnc32)O1		EC50			2.2.15	0.08 µM
Nc1ncnc2c1ncn2CCOCP(=O)(O)O		EC50		Mutation M550I	HepG2	0.31 µM
O=c1ccn([C@H]2C[C@H](F)[C@@H](CO)O2)c(=O)[nH]1		EC90			HepG2.2.15	36 µM
Nc1ccn([C@@H]2C=C(F)[C@H](CO)O2)c(=O)n1		EC50		RTM204	HEPAD79	<2.3 µM
O=C(/C=C/C=C/c1ccc(Br)cc1)[Se]c1ccccc1	PCR	EC50			HepG2.2.15	6.7 µM
Nc1nc(=O)n([C@@H]2CS[C@H](CO)O2)cc1F		EC50			2.2.15	0.04 µM
O=c1[nH]c(=O)n([C@H]2C[C@H](F)[C@@H](CO)O2)cc1Cl		EC90			HepG2.2.15	>100 µM
Cc1cn([C@H]2O[C@@H](CO)[C@H](O)[C@H]2F)c(=O)[nH]c1=O		EC50		DUAL		>100 µM
Nc1ncnc2c1ncn2CCOCP(=O)(O)O		EC50			HB611	0.054 µg/mL
Nc1ccn([C@@H]2CS[C@H](CO)O2)c(=O)n1		EC50		M550V		8.5 µM
O=C(C=Cc1ccc(O)c(O)c1)O[C@@H]1C[C@](O)(C(=O)O)C[C@@H](O)[C@H]1O	ELISA / antigen	EC50			HepG2.2.15	>1380 µM
CC1=C(O)C(=O)C=C2C1=CC=C1[C@@]2(C)CC[C@@]2(C)[C@@H]3C[C@](C)(C(=O)OCc4ccc([N+](=O)[O-])cc4)CC[C@]3(C)CC[C@]12C	ELISA / antigen	EC50			HepG2 2.2.15	14.4 µM
Nc1ccn([C@@H]2C[C@@H](O)[C@H](CO)O2)c(=O)n1		EC50			2.2.15	0.24 µM
Cc1cn([C@@H]2C[C@H](O)[C@H](CO)O2)c(=O)[nH]c1=O		EC50			2.2.15	>10 µM
Nc1nc(=O)n([C@@H]2CS[C@H](CO)O2)cc1F		EC90		RTM204	HEPAD79	>10 µM
Nc1ncnc2c1ncn2[C@@H]1C[C@@H](N)[C@H](CO)O1		EC50			2.2.15	>10 µM
CC1=C(O)C(=O)C=C2C1=CC=C1[C@@]2(C)CC[C@@]2(C)[C@@H]3C[C@](C)(C(=O)N4CCOCC4)CC[C@]3(C)CC[C@]12C	ELISA / antigen	EC50			HepG2 2.2.15	14.6 µM
Nc1cc(OCCOCP(=O)(O)O)ncn1	PCR	EC50			HEPAD79	80 µM
Nc1cc(OCCOCP(=O)(O)O)nc(N)n1		EC50			HepAD38	0.08 µg/mL
Nc1nc(=O)n([C@H]2O[C@@H](CO)C=C2F)cc1F		EC50		RTM204	HepAD38	<0.63 µM
Nc1ncnc2c1ncn2[C@@H]1CC[C@H](CO)O1		EC50			2.2.15	5 µM